US20030109675A1 (priority 2001, published 2003)

Experiments:
[1] = target: T1, HYTAVVKKSSAV (SEQ ID NO: 3), PapA 12-mer scan peptide
T1 chain: HYTAVVKKSSAV

[2] = target: T2, NGHSDEL (SEQ ID NO: 12), PapA 7-mer scan peptide
T2 chain: NGHSDEL

PapA-6H4A, P04127 = target: T3, PapA-6H4A, P04127
T3 chain: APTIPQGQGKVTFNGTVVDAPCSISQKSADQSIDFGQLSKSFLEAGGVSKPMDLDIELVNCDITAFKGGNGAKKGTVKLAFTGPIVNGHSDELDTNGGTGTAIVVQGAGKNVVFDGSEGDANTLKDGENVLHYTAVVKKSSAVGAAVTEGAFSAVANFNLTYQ

[3] = target: T4, SPCJ-12 - Abz-HYTAVVKKSSAV-DAP(Dnp)-NH2
T4 chain: HYTAVVKKSSAV

[4] = target: T5, SPCJ-13 - Abz-HYTAVVK-DAP(Dnp)-NH2
T5 chain: HYTAVVK

B1: DegP protease (protein)
chain: AETSSATTAQQMPSLAPMLEKVMPSVVSINVEGSTTVNTPRMPRNFQQFFGDDSPFCQEGSPFQSSPFCQGGQGGNGGGQQQKFMALGSGVIIDADKGYVVTNNHVVDNATVIKVQLSDGRKFDAKMVGKDPRSDIALIQIQNPKNLTAIKMADSDALRVGDYTVAIGNPFGLGETVTSGIVSALGRSGLNAENYENFIQTDAAINRGNSGGALVNLNGELIGINTAILAPDGGNIGIGFAIPSNMVKNLTSQMVEYGQVKRGELGIMGTELNSELAKAMKVDAQRGAFVSQVLPNSSAAKAGIKAGDVITSLNGKPISSFAALRAQVGTMPVGSKLTLGLLRDGKQVNVNLELQQSSQNQVDSSSIFNGIEGAEMSNKGKDQGVVVNNVKTGTPAAQIGLKKGDVIIGANQQAVKNIAELRKVLDSKPSVLALNIQRGDSTIYLLMQ
For B1, the “cleavage in the solid-phase peptide scan (liberated fluorescence)” value [1] was “the most efficiently cleaved region, represented by the sequence-HYTAVVKKSSAV”, the “cleavage in the solid-phase peptide scan (liberated fluorescence)” value [2] was “Of the other sequences identified by the peptide scanning, ... […]” and the “cleavage of PapA-6H4A that had not been reduced and carboxymethylated” value (PapA-6H4A, P04127) was “minimal by comparison to its activity on PapA-6H4A-rcm (data not shown)”. For the same protein, the “cleavage in the fluorescent-quench peptide assay” value [3] was “DegP cleaved SPCJ-12 in a time-dependent fashion” and the “cleavage in the fluorescent-quench peptide assay” value [4] was “DegP cleaved SPCJ-13 in a time-dependent fashion”.
